Compound potency records, mixed from different reports. Data source: NIAID ChemDB in PubChem.

Shared fields: tests on isolated targets

Two numbers with a dash give a range or band. Neighbouring rows are from separate reports. ICn is the concentration giving n% inhibition. An empty or dashed field is not shown. Percent inhibition refers to the dose given; in toxicity tests it is the harm to the cells.

structure	read-out	protein	agent	strain or isolate	read by	dose	value
O=C(CCc1ccccc1)Nc1ccsc1-c1nc(C(=O)O)c(O)c(=O)[nH]1	IC50	HCV polymerase	Hepatitis C virus	-	-	-	<25 µM
C[C@@H]1O[C@@H](OC[C@H]2O[C@@H](Oc3c(-c4ccc(O)c(O)c4)oc4cc(O)cc(O)c4c3=O)[C@H](O)[C@@H](O)[C@@H]2O)[C@H](O)[C@H](O)[C@H]1O	inhibition	Replicase complex	Hepatitis C virus	J4	SYBR Green	20 µM	30.3%
COc1cc(C)c(S(=O)(=O)N(Cc2cccc(Br)c2)[C@@H](Cc2ccccc2)C(=O)O)c(C)c1C	IC50	RNA-dependent RNA polymerase	Hepatitis C virus	-	-	-	5–20 µM
O=C(Nc1ccc(-c2nc(C(=O)O)c(O)c(=O)[nH]2)cc1)c1cccs1	IC50	HCV polymerase	Hepatitis C virus	-	-	-	<100 µM
COc1cc(C)c(S(=O)(=O)N(Cc2cccc(I)c2)C(Cc2ccccc2)C(=O)O)c(C)c1C	IC50	RNA-dependent RNA polymerase	Hepatitis C virus	-	-	-	5–20 µM
O=C(O)c1nc(-c2cccc(OCc3ccc(Cl)s3)c2)[nH]c(=O)c1O	IC50	HCV polymerase	Hepatitis C virus	-	-	-	<100 µM
CCCN(NC(=O)[C@@H]1CCCN1C(=O)[C@@H](NC(=O)[C@@H](NC(=O)[C@H](CC(=O)O)NC(=O)[C@H](CCC(=O)O)NC(=O)[C@@H](NC(C)=O)[C@@H](C)O)C(C)C)C(C)C)C(=O)Oc1ccc([N+](=O)[O-])cc1	Ki	HCV NS3 protease	Hepatitis C virus	-	-	-	5 µM
C[C@@]1(O)[C@H](O)[C@@H](COP(=O)(O)OP(=O)(O)OP(=O)(O)O)O[C@H]1c1ccc2c(N)ncnn12	IC50	Nonstructural protein 5B	Hepatitis C virus	GT7a	nucleotide incorporation	-	0.81 µM
O=C(Nc1ccc2cn[nH]c2c1)c1cc(N2CCC(O)CC2)c(F)cc1F	inhibition	Reverse transcriptase	Hepatitis B virus	-	-	0.01 µg/mL	24%
O=C(O)[C@H](Cc1ccccc1)N(Cc1cccc(Br)c1)C(=O)COc1ccc(Cl)cc1	IC50	RNA-dependent RNA polymerase	Hepatitis C virus	-	-	-	>20 µM
CC[C@H](C)[C@H](NC(=O)[C@@H](CC(=O)O)NC(=O)[C@H](CC(=O)O)NC(C)=O)C(=O)N[C@H](C(=O)N1CCC[C@H]1C(=O)N[C@@H](CS)C(=O)O)C(C)C	IC50	NS3 serine protease	Hepatitis C virus	-	-	-	4 µM
COc1cc(-c2oc3cc(O)cc(O)c3c(=O)c2O)ccc1O	inhibition	Replicase complex	Hepatitis C virus	J4	SYBR Green	20 µM	77.6%
CC(=O)Nc1ccsc1-c1nc(C(=O)O)c(O)c(=O)[nH]1	IC50	HCV polymerase	Hepatitis C virus	-	-	-	<25 µM
O=C(O)[C@H](Cc1ccccc1)N(Cc1ccc(Br)o1)C(=O)c1ccc(Cl)cc1I	IC50	RNA-dependent RNA polymerase	Hepatitis C virus	-	-	-	<5 µM
O=c1c(O)c(-c2ccc(O)cc2)oc2cc(O)ccc12	inhibition	Replicase complex	Hepatitis C virus	J4	SYBR Green	20 µM	63.9%
O=C(Cc1ccccc1)Nc1cccc(-c2nc(C(=O)O)c(O)c(=O)[nH]2)c1	IC50	HCV polymerase	Hepatitis C virus	-	-	-	<100 µM
C[C@@]1(O)[C@H](O)[C@@H](COP(=O)(O)OP(=O)(O)OP(=O)(O)O)O[C@H]1c1cnc2c(N)ncnn12	IC50	Nonstructural protein 5B	Hepatitis C virus	GT-1b Con1	nucleotide incorporation	-	0.55 µM
O=c1c(O[C@@H]2C[C@H](CO)[C@@H](O)[C@H](O)[C@H]2O)c(-c2ccc(O)c(O)c2)oc2cc(O)cc(O)c12	inhibition	Replicase complex	Hepatitis C virus	J4	SYBR Green	20 µM	25.9%
CC(=O)N[C@@H](CC(=O)O)C(=O)N[C@@H](CCC(=O)O)C(=O)N[C@H](C(=O)N[C@@H](CC(=O)O)C(=O)N[C@@H](CC1CCCCC1)C(=O)N[C@@H](CS)C(=O)O)C(c1ccccc1)c1ccccc1	IC50	NS3 serine protease	Hepatitis C virus	-	-	-	0.05 µM
O=C1CC(c2ccc(O)cc2)Oc2cc(O)ccc21	inhibition	Replicase complex	Hepatitis C virus	J4	SYBR Green	20 µM	6.1%
O=C(O)c1nc(-c2cc(Cl)ccc2NS(=O)(=O)c2ccc3c(Cl)cccc3c2)[nH]c(=O)c1O	IC50	HCV polymerase	Hepatitis C virus	-	-	-	<100 µM
O=C(O)[C@H]1O[C@@H](Oc2cc3oc(-c4ccccc4)cc(=O)c3c(O)c2O)[C@H](O)[C@@H](O)[C@@H]1O	inhibition	Replicase complex	Hepatitis C virus	J4	SYBR Green	20 µM	61.8%
O=C(Nc1ccc2[nH]ncc2c1)c1cc(N2CCC(O)CC2)c(F)cc1F	inhibition	Reverse transcriptase	Hepatitis B virus	-	-	0.1 µg/mL	52%
CC(C)[C@@H]1CC[C@@H](C)C[C@H]1OCC(=O)Nc1ccsc1-c1nc(C(=O)O)c(O)c(=O)[nH]1	IC50	HCV polymerase	Hepatitis C virus	-	-	-	<25 µM
CN1CCN(c2cc(C(=O)Nc3ccc4[nH]ncc4c3)c(F)cc2F)CC1	inhibition	Reverse transcriptase	Hepatitis B virus	-	-	0.1 µg/mL	56%
O=c1c(O)c(-c2ccc(O)c(O)c2)oc2cc(O)ccc12	inhibition	Replicase complex	Hepatitis C virus	J4	SYBR Green	20 µM	65.8%
O=C(Nc1ccc2cn[nH]c2c1)c1cc(C2CCNCCN2)c(F)cc1F	inhibition	Nonstructural protein 5B	Hepatitis C virus	-	-	1 µg/mL	29%
C=CCC(N)(C=O)C(=O)[C@H](CC(C)C)NC(=O)C(NC(=O)[C@H](Cc1cccc(C)c1)NC(=O)[C@H](CCC(=O)O)NC(=O)[C@H](CC(=O)O)NC(=O)CCC(=O)O)C(C)(C)C	IC50	NS3 serine protease	Hepatitis C virus	-	-	-	0.09 µM
Cc1cccc(COc2cc(O)cc(-c3nc(C(=O)O)c(O)c(=O)[nH]3)c2)c1F	IC50	HCV polymerase	Hepatitis C virus	-	-	-	<100 µM
O=C(Nc1ccc2cn[nH]c2c1)c1cc(NCc2ccccn2)c(F)cc1F	inhibition	Reverse transcriptase	Hepatitis B virus	-	-	1 µg/mL	65%

For reference, 4 entries again:

| structure | read-out | protein | agent | strain or isolate | read by | dose | value |
|---|---|---|---|---|---|---|---|
| CN1CCN(c2cc(C(=O)Nc3ccc4[nH]ncc4c3)c(F)cc2F)CC1 | inhibition | Reverse transcriptase | Hepatitis B virus | - | - | 0.1 µg/mL | 56% |
| C[C@@H]1O[C@@H](OC[C@H]2O[C@@H](Oc3c(-c4ccc(O)c(O)c4)oc4cc(O)cc(O)c4c3=O)[C@H](O)[C@@H](O)[C@@H]2O)[C@H](O)[C@H](O)[C@H]1O | inhibition | Replicase complex | Hepatitis C virus | J4 | SYBR Green | 20 µM | 30.3% |
| CC(C)[C@@H]1CC[C@@H](C)C[C@H]1OCC(=O)Nc1ccsc1-c1nc(C(=O)O)c(O)c(=O)[nH]1 | IC50 | HCV polymerase | Hepatitis C virus | - | - | - | <25 µM |
| O=C(Cc1ccccc1)Nc1cccc(-c2nc(C(=O)O)c(O)c(=O)[nH]2)c1 | IC50 | HCV polymerase | Hepatitis C virus | - | - | - | <100 µM |